Compound potency records, mixed from different reports. Data source: NIAID ChemDB in PubChem.

Common to all: growth or infection tests; agent: HIV-1

ECn: concentration that inhibits the pathogen or its effect by n%. Blank or dashed fields: not listed here. Rows are shuffled and stem from different studies.

SMILES	mutations	method	strain or isolate	endpoint	cells	result
CC(C)Nc1cccnc1N1CCN(C(=O)c2cc3cc(NS(C)(=O)=O)ccc3[nH]2)CC1		MTT	IIIB	EC50	MT-4	0.107 µM
CC(=O)N1CCC(C(=O)N(CCCN2CCC(Cc3ccc(C(N)=O)cc3)CC2)c2ccc(C)c(Cl)c2)CC1		luciferase	R5 subtype B_2 recombinant	EC50	U87 (CD4+ CCR5+) + U87	0.0071 µM
Cc1cn([C@@H]2O[C@H](CO)C3(OS(=O)(=O)C=C3N)[C@H]2O[Si](C)(C)C(C)(C)C)c(=O)[nH]c1=O		cytopathic effect / trypan blue	HE	EC50	MT-4	>80 µM
O=C(N[C@H]1c2ccccc2OC[C@H]1O)[C@H](Cc1cccnc1)C[C@H](O)CN1CCN(Cc2ccn(-c3cc(Cl)c(Cl)c(Cl)c3)c2)C[C@H]1C(=O)NCC(F)(F)F	PR-L10I M46I I54V Q58E L63P I64V V77I V82F I84V L90M I93L	p24	K-60C Clinical isolate	EC95	MT-4	0.031 µM
CC1(C)CC[C@]2(C(=O)O)CC[C@]3(C)C(=CC[C@@H]4[C@@]5(C)CC[C@H](O)C(C)(C)[C@@H]5CC[C@]43C)[C@@H]2C1		p24	Primary clinical isolate Rome	EC50	Macrophage + Monocytes/macrophages	57.4 µM
Nc1ccn([C@H]2CC[C@@H](CO)O2)c(=O)n1			IIIB	EC50	U-937	0.0015 µM
CC(C)(C)NC(=O)[C@@H]1C[C@@H]2CCCC[C@@H]2CN1C[C@@H](O)[C@H](Cc1ccccc1)NC(=O)[C@H](CC(N)=O)NC(=O)c1ccc2ccccc2n1	PR-G48V L90M	p24	RF	EC50	C8166	0.02 µM
COC(=O)CSc1cc(Cl)c(C)cc1S(=O)(=O)Nc1n[nH]c(N)n1		cytopathic effect / XTT	RF	EC50	CEM	>200 µM
Nc1nc(=O)n([C@H]2CO[C@@H](CO)S2)cc1F		RT activity	HXB2D	EC50	MT-4	4.8 µM
Nc1nc(=O)n([C@@H]2CC[C@H](CO)O2)cc1F		RT activity	BaL	EC50	Macrophage	0.00057 µM
O=C(N[C@H]1c2ccccc2OC[C@H]1O)[C@H](Cc1cccnc1)C[C@H](O)CN1CCN(Cc2ccn(-c3ccc(Cl)cc3)c2)C[C@H]1C(=O)NCC(F)(F)F	PR-L10I M46I I54V Q58E L63P I64V V77I V82F I84V L90M I93L	p24	K-60C Clinical isolate	EC95	MT-4	0.015 µM
CCCc1cc(=O)oc2c3c(c4c(c12)OC(C)(C)C=C4)O[C@@H](C)[C@H](C)C3=O		cytopathic effect / MTT	IIIB	EC50	CEM + CEM-SS	2.47 µM
Cc1cc(S(N)(=O)=O)c(SCc2nc(N)nc(N(C)C)n2)cc1Cl		cytopathic effect / XTT	RF	EC50	CEM	>200 µM
Cc1cn([C@@H]2O[C@H](CO[Si](C)(C)C(C)(C)C)C3(OS(=O)(=O)C=C3N)[C@H]2O[Si](C)(C)C(C)(C)C)c(=O)n(C)c1=O	RT-Y181C	cytopathic effect / XTT	IIIB	EC50	CEM	3.2 µM
Cc1cn([C@H]2C[C@H](N=[N+]=[N-])[C@@H](CO)O2)c(=O)[nH]c1=O		cytopathic effect / XTT	NL4-3 Recombinant	EC50	MT-2	0.3 µM
CN[C@@H]1[C@H](O[C@@H]2OC[C@@H](O)[C@H](O)[C@H]2O)[C@@H](O)[C@H](O[C@H]2c3cc(C)c(C(=O)N[C@H](C)C(=O)O)c(O)c3-c3c(cc4c(c3O)C(=O)c3cc(OC)cc(O)c3C4=O)[C@@H]2O)O[C@@H]1C		p24	IIIB X4	EC50	PBMC	2.8 µg/mL
O=S(=O)(Nc1nnc2c3ccccc3cnn12)c1ccc(Cl)cc1S		cytopathic effect / XTT	RF	EC50	CEM	70 µM
CC(C)[C@H](NC(=O)N(C)Cc1ccccn1)C(=O)N[C@@H](Cc1ccccc1)[C@H](O)[C@H](O)[C@H](Cc1ccccc1)NC(=O)[C@@H](NC(=O)N(C)Cc1ccccn1)C(C)C		cytopathic effect / MTT	LAV	EC50	MT-4	0.24 µM
Nc1ccn([C@H]2CC[C@@H](CO)O2)c(=O)n1		MTT	ROD	EC50	MT-4	0.328 µg/mL
C#C[C@]1(CO)O[C@@H](n2cnc3c(N)nc(F)nc32)C[C@@H]1O	V90I/M184I	fluorescence	Clinical isolate	EC50	MT4-GFP	0.00586 µM
CC(C)=CCN1Cc2cc(Cl)cc3[nH]c(=S)n(c23)C[C@@H]1C	RT-D67N K70R Y181C T215Y K219Q	plaque count	RTMC (RT-Y181C)	EC50	HT4 + HT4 LacZ-1	2.5 µM
Cc1cc(C)c(Oc2ccc([N+](=O)[O-])c(NC3CCN(Cc4ccc(S(N)(=O)=O)cc4)CC3)n2)c(C)c1	Resistant strain (K103N + Y181C)	MTT	IIIB	EC50	MT-4	>5.7 µM
O=C(N[C@H]1c2ccccc2OCC1O)[C@H](Cc1cccnc1)C[C@H](O)CN1CCN(Cc2ccc(-c3ccccc3)o2)C[C@H]1C(=O)NCC(F)(F)F		p24	NL4-3 WT	EC95	MT-4	≤0.008 µM
O=c1[nH]cnc2c1ncn2[C@H]1CC[C@@H](CO)O1		RT activity	HXB2D	EC50	MT-4	0.53 µM
Cc1cc(S(=O)(=O)Nc2nc(N)nc(N3N=CCC3C)n2)c(SCC(=O)O)cc1Cl		cytopathic effect / XTT	RF	EC50	CEM	>200 µM
COc1ccc(S(=O)(=O)N(CC(C)C)C[C@@H](O)[C@H](Cc2ccccc2)NC(=O)O[C@H]2CO[C@@H]3O[C@H]4OCC[C@H]4[C@@H]32)cc1	M46I V28F I84V	p24 / luminescence	NL4-3	EC50	MT-4	0.5043 µM
Cc1cn([C@H]2C=C[C@@H](COC(=O)CCNC(=O)C(=O)/C=C(\O)c3cccn3Cc3ccc(F)cc3)O2)c(=O)[nH]c1=O		RT activity	BaL	EC50	PBMC	1.5 µM
Cc1ccnc2c1NC(=O)c1cccnc1N2C1CC1	Y181C	RT activity / fluorescence		EC50		>42 µM
C/C=C/CSc1cc(NC(=S)c2ccsc2C)ccc1Cl	RT-V108I	cytopathic effect / XTT	NL4-3 (RT V108I)	EC50	CEM + CEM-SS	0.2 µM
CC(C)OC(=O)OCOP(=O)(CO[C@H](C)Cn1cnc2c(N)ncnc21)OCOC(=O)OC(C)C	A114S/A502V	GFP	NL4-3	EC50	TZM-gfp	0.02 µM
Nc1nc(=O)n([C@@H]2CO[C@H](CO)S2)cc1F	RT-M184V	RT activity	HXB2D (RT-M184V)	EC50	MT-4	>100 µM
COc1ccc(S(=O)(=O)N(CC(C)C)C[C@@H](O)[C@H](Cc2ccccc2)NC(=O)O[C@H]2CO[C@H]3O[C@@H]4OCC[C@@H]4[C@H]32)cc1	M46I V82F I84V	p24 / luminescence	NL4-3	EC50	MT-4	0.0028 µM
Cc1cn([C@H]2C[C@H](N=[N+]=[N-])[C@@H](CO)O2)c(=O)[nH]c1=O	RT-M184V	RT activity	4205(RT-M184V)	EC50	CBMC	0.007 µM
Cc1ccnc2c1NC(=O)c1cccnc1N2C1CC1		cytopathic effect / XTT	4XAZT+Y181C	EC50	CEM + CEM-SS	0.8 µM
Cc1cc(S(=O)(=O)Nc2nnc3ccccn23)c(S)cc1Cl		cytopathic effect / XTT	RF	EC50	CEM	97.9 µM
CCO/N=C(\c1ccc(Br)cc1)C1CCN(C2(C)CCN(C(=O)c3c(C)cc[n+]([O-])c3C)CC2)CC1		p24	ASM 57 R5 CLADE B	EC50	PBMC	0.01 µM
Cc1cc(S(=O)(=O)Nc2nnc3cc(C(F)(F)F)cc(C)n23)c(S)cc1Cl		cytopathic effect / XTT	RF	EC50	CEM	>200 µM
Fc1cccc(F)c1[C@@H]1SCc2nc3ccccc3n21	RT-D138K	cytopathic effect / XTT	IIIB	EC50	CEM	11.44 µM
COc1ccc2c(c1)C1(c3ccccc3)SCCN1C2=O		cytopathic effect / MTT	IIIB	EC50	CEM + CEM-SS	1.18 µM
Cc1cn([C@@H]2O[C@H](CO)C3(OS(=O)(=O)C=C3N)[C@H]2O)c(=O)[nH]c1=O		p24	IIIB	EC50	PBL	>30 µM
CCC[C@@]1(CCc2ccccc2)CC(O)=C([C@H](CC)c2cccc(NS(=O)(=O)c3ccc(C(F)(F)F)cn3)c2)C(=O)O1		p24 / luminescence	NL4-3	EC50	MT-4	0.3629 µM
Cc1cc(S(=O)(=O)Nc2nc(N)n(-c3ccccn3)n2)c(S)cc1Cl		cytopathic effect / XTT	RF	EC50	CEM	114.7 µM
CNc1nc(Nc2c(C)cc(C)cc2C)nc(NC2CCN(Cc3ccc(C(N)=O)cc3)CC2)n1		MTT	IIIB	EC50	MT-4	0.00461 µg/mL
O=c1[nH]cnc2c1ncn2[C@H]1CC[C@@H](CO)O1	RT-F77L F116Y Q151M	cytopathic effect	FO-08.96 (HXB2 RT F77L F116Y Q151M)	EC50	MT-4	304 µM
CCc1cc(NCc2nc3c(Cl)ccc(Cl)c3o2)c(=O)[nH]c1C	RT-Y188L	p24	NL4-3	EC50	MT-4	>3 µM
Cc1cn([C@H]2C=C[C@@H](COC(=O)CCNC(=O)C(=O)/C=C(\O)c3cc(OCc4ccccc4)cc(OCc4ccccc4)c3)O2)c(=O)[nH]c1=O		RT activity	IIIB	EC50	MT-4	2.2 µM
CCc1cc(NCc2nc3c(Cl)ccc(Cl)c3o2)c(=O)[nH]c1C		p24	IIIB	EC90	MT-4	0.11 µM
Cc1cc(S(=O)(=O)Nc2nc(N)nc(N3CCOCC3)n2)c(SCC(=O)O)cc1Cl		cytopathic effect / XTT	RF	EC50	CEM	>200 µM
Nc1ncnc2c1ncn2[C@H]1CC[C@@H](CO)O1		virus yield	LAV-1	EC50	U-937	<1 µM
CCCc1cc(=O)oc2c3c(c4c(c12)OC(C)(C)C=C4)O[C@@H](C)[C@H](C)[C@H]3O		cytopathic effect / MTT	A-17 (TIBO-RS)	EC50	MT-2	>0.2 µM
Cc1cc(C#N)cc(C)c1Oc1ccc([N+](=O)[O-])c(NC2CCN(Cc3ccc(S(N)(=O)=O)cc3)CC2)n1		MTT	IIIB	EC50	MT-4	0.019 µg/mL
C=CCn1c(=O)c(C)cn([C@@H]2O[C@H](CO[Si](C)(C)C(C)(C)C)C3(OS(=O)(=O)C=C3N)[C@H]2O[Si](C)(C)C(C)(C)C)c1=O		cytopathic effect / trypan blue	HE	EC50	MT-4	0.164 µM
Nc1ncnc2c1ncn2CCOCP(=O)(O)O	RT-K65R	p24	RF	EC50	C8166	4 µM
Nc1ccn([C@H]2CC[C@@H](CO)O2)c(=O)n1		cytopathic effect / MTT	RF	EC50	MT-2	~0.05 µM
Nc1nc(NC2CC2)c2ncn([C@H]3C=C[C@@H](CO)C3)c2n1	RT-Q151M	cytopathic effect / XTT	Site-directed mutant	EC50	MT-2	5.25 µM
Cc1occc1C(=S)Nc1ccc(Cl)c(/C=N/OC(C)(C)C)c1	RT-V179D	cytopathic effect / XTT	NL4-3 (RT V179D)	EC50	CEM + CEM-SS	0.7 µM
CCN(c1ncccc1NC(C)(C)C)C1CCN(C(=O)c2cc3cc(NS(C)(=O)=O)ccc3[nH]2)CC1		p24	Isolate 410	EC50	PBMC	<1.1 µM
CC(C)Nc1cccnc1N1CCN(C(=O)c2cc3cc(NS(C)(=O)=O)ccc3[nH]2)CC1	RT-T69N L74I Q151M M184V	cytopathic effect	LZ-07.96 (HXB2 RT T69N L74I Q151M M184V)	EC50	MT-4	0.05 µM
Cc1cn([C@H]2C=C[C@@H](COC(=O)CNC(=O)C(=O)/C=C(\O)c3cccn3Cc3ccc(F)cc3)O2)c(=O)[nH]c1=O		RT activity	LAI	EC50	CEM + CEM-SS	3 µM
C/C(=C(/CCO)SS/C(CCO)=C(\C)N(C=O)Cc1cnc(C)nc1N)N(C=O)Cc1cnc(C)nc1N		p24	MN	EC50	H9/HIV-1(MN) + H9	<125 µM
Cc1cn([C@H]2C=C[C@@H](CO)O2)c(=O)[nH]c1=O	RT-A62V S68G T69D V75I F77L F116Y Q151M	cytopathic effect	BI-03.97 (HXB2(RT-A62V S68G T69D V75I F77L F116Y Q151M))	EC50	MT-4	>10 µM
Nc1nc(=O)n([C@@H]2CS[C@H](CO)O2)cc1F	RT-M184V	p24	3TC-resistant (RT M184V) Clinical isolate	EC50	PBMC	0.5 µM
Fc1cccc(F)c1[C@H]1SCc2nc3ccccc3n21	RT-Y188C	cytopathic effect / XTT	IIIB	EC50	CEM	4.16 µM
Cc1cn([C@H]2C=C[C@@H](COC(=O)CNC(=O)C(=O)/C=C(\O)c3cc(OCc4ccccc4)cc(OCc4ccccc4)c3)O2)c(=O)[nH]c1=O		RT activity	BaL	EC50	PBMC	0.83 µM
O=C(N[C@H]1c2ccccc2OC[C@H]1O)[C@H](Cc1cccnc1)C[C@H](O)CN1CCN(Cc2ccn(-c3cccc(F)c3)c2)C[C@H]1C(=O)NCC(F)(F)F	PR-L10I N37S R41K M46I I54V I62V L63P A71V V77I V82A L90M I93L	p24	Q-60C Clinical isolate	EC50	MT-4	<0.015 µM
O=c1[nH]cnc2c1ncn2[C@H]1CC[C@@H](CO)O1		p24	8680 CLADE D CLADE D	EC50	PBMC	5.38 µM
Cc1cn([C@H]2C[C@H](N=[N+]=[N-])[C@@H](CO)O2)c(=O)[nH]c1=O		cytopathic effect / MTT	G	EC50	CEM + CEM-SS	0.006 µM
Nc1nc2c(ncn2[C@H]2CO[C@@H](CO)O2)c(=O)[nH]1	RT-K65R Q151M	cytopathic effect / XTT	Site-directed mutant	EC50	MT-2	>44 µM

A second listing of 7 rows from above:

SMILES	mutations	method	strain or isolate	endpoint	cells	result
Nc1nc(=O)n([C@@H]2CC[C@H](CO)O2)cc1F		RT activity	BaL	EC50	Macrophage	0.00057 µM
Cc1cc(S(=O)(=O)Nc2nnc3cc(C(F)(F)F)cc(C)n23)c(S)cc1Cl		cytopathic effect / XTT	RF	EC50	CEM	>200 µM
Cc1cc(S(=O)(=O)Nc2nnc3ccccn23)c(S)cc1Cl		cytopathic effect / XTT	RF	EC50	CEM	97.9 µM
Cc1cn([C@@H]2O[C@H](CO)C3(OS(=O)(=O)C=C3N)[C@H]2O[Si](C)(C)C(C)(C)C)c(=O)[nH]c1=O		cytopathic effect / trypan blue	HE	EC50	MT-4	>80 µM
CCC[C@@]1(CCc2ccccc2)CC(O)=C([C@H](CC)c2cccc(NS(=O)(=O)c3ccc(C(F)(F)F)cn3)c2)C(=O)O1		p24 / luminescence	NL4-3	EC50	MT-4	0.3629 µM
COC(=O)CSc1cc(Cl)c(C)cc1S(=O)(=O)Nc1n[nH]c(N)n1		cytopathic effect / XTT	RF	EC50	CEM	>200 µM
CNc1nc(Nc2c(C)cc(C)cc2C)nc(NC2CCN(Cc3ccc(C(N)=O)cc3)CC2)n1		MTT	IIIB	EC50	MT-4	0.00461 µg/mL